A mixed list of measured activities; the numbers were collected in NIAID ChemDB.

All rows: tests in culture; species: Poliovirus; measure: inhibition

"inactive" is the filed call at that dose; no cut-off is given. Conditions beyond the fields shown may differ between rows. Inhibition is in % at the dose shown (toxicity tests: loss of growth or viability).

{"SMILES": "C/C(=N\\O)c1ccc2c(c1)Sc1ccccc1O2", "dose": "2 µg/mL", "cells": "BSC-1", "strain": "TYPE 3", "result": "94%"}
{"SMILES": "O=c1c(O)c(-c2ccc(Cl)c(Cl)c2)oc2ccccc12", "dose": "6.25 µM", "cells": "HeLa", "strain": "TYPE 2", "result": "15%"}
{"SMILES": "CC(O)c1ccc2c(c1)S(=O)c1ccccc1O2", "dose": "0.4 µg/mL", "cells": "BSC-1", "strain": "TYPE 3", "result": "12%"}
{"SMILES": "CC(=O)c1c(-c2ccc(Cl)cc2)oc2ccccc2c1=O", "dose": "25 µM", "cells": "HeLa", "strain": "TYPE 2", "result": "23%"}
{"SMILES": "Cc1nnc2nc3c(nn12)c1ccccc1n3C", "dose": "60 µg/mL", "cells": "BSC-1", "strain": "TYPE 1", "result": "14%"}
{"SMILES": "CC(O)c1ccc2c(c1)Sc1ccccc1S2", "dose": "10 µg/mL", "cells": "BSC-1", "strain": "TYPE 3", "result": "100%"}
{"SMILES": "CCC(=O)C(CCCCCCOc1ccc(OC)cc1Cl)C(=O)CC", "dose": "0.02 µM", "cells": "HeLa", "strain": "MEF (TYPE 2)", "result": "17%"}
{"SMILES": "CC(C)CCCC(COS(=O)(=O)O)C1CCC2C3CC=C4C[C@H](O)[C@@H](OS(=O)(=O)O)CC4(C)C3CCC12C", "dose": "80 µg/mL", "cells": "VERO", "strain": "TYPE 3", "result": "75.3%"}
{"SMILES": "CC(C)CCC[C@@H](COS(=O)(=O)O)[C@H]1CC[C@H]2[C@@H]3CC[C@@H]4[C@H](O)[C@H](OS(=O)(=O)O)CC[C@]4(C)[C@H]3[C@@H](O)C[C@]12C", "dose": "10 µg/mL", "cells": "VERO", "strain": "SABIN (TYPE 3)", "result": "26%"}
{"SMILES": "COc1cc(C(=O)Oc2c(-c3ccc(Cl)cc3)oc3ccccc3c2=O)ccc1OC(C)=O", "dose": "6.25 µM", "cells": "HeLa", "strain": "TYPE 2", "result": "10%"}
{"SMILES": "CCC(O)c1ccc2c(c1)Sc1ccccc1O2", "dose": "0.4 µg/mL", "cells": "BSC-1", "strain": "TYPE 3", "result": "16%"}
{"SMILES": "N=C(N)N", "dose": "3000 µM", "cells": "HeLa", "result": ">99%"}
{"SMILES": "COc1cc(C(=O)Oc2c(-c3ccc(Cl)c(Cl)c3)oc3ccccc3c2=O)ccc1OC(C)=O", "dose": "1.07 µM", "cells": "HeLa", "strain": "TYPE 2", "result": "inactive"}
{"SMILES": "CCCCCCCCCCCCCCCCCCCCCCO", "dose": "5 µg/mL", "cells": "VERO", "result": "0%"}
{"SMILES": "O=C(/C=C/c1ccc(O)c(O)c1)Oc1c(-c2ccc(Cl)c(Cl)c2)oc2ccccc2c1=O", "dose": "6.25 µM", "cells": "HeLa", "strain": "TYPE 2", "result": "29%"}
{"SMILES": "CC(O)c1ccc2c(c1)Sc1cc(C(C)O)ccc1O2", "dose": "2 µg/mL", "cells": "BSC-1", "strain": "TYPE 3", "result": "20%"}
{"SMILES": "O=C(Oc1c(-c2ccc(Cl)cc2)oc2ccccc2c1=O)c1cc(O)c(O)c(O)c1", "dose": "25 µM", "cells": "HeLa", "strain": "TYPE 2", "result": "28%"}
{"SMILES": "CC(C)=CCCC(CO)C1CCC2C3CC=C4C[C@H](O)[C@@H](O)CC4(C)C3CCC12C", "dose": "40 µg/mL", "cells": "VERO", "strain": "TYPE 3", "result": "19.2%"}
{"SMILES": "CC(OC(=O)Nc1ccc2ccccc2c1)c1ccc2c(c1)Sc1ccccc1O2", "dose": "10 µg/mL", "cells": "BSC-1", "strain": "TYPE 3", "result": "41%"}
{"SMILES": "C1=C(c2ccccc2)COc2ccccc21", "dose": "10 µM", "cells": "HEP-2", "strain": "IB (TYPE 2)", "result": "42%"}
{"SMILES": "COC(C)c1ccc2c(c1)Sc1ccccc1O2", "dose": "0.4 µg/mL", "cells": "BSC-1", "strain": "TYPE 3", "result": "86%"}
{"SMILES": "CC12CC[C@H](OS(=O)(=O)O)CC1=CCC1C2CCC2(C)C(C(=O)COS(=O)(=O)O)CCC12", "dose": "80 µg/mL", "cells": "VERO", "strain": "TYPE 3", "result": "0%"}

Repeating the final 3 entries:

SMILES	dose	cells	strain	result
C1=C(c2ccccc2)COc2ccccc21	10 µM	HEP-2	IB (TYPE 2)	42%
COC(C)c1ccc2c(c1)Sc1ccccc1O2	0.4 µg/mL	BSC-1	TYPE 3	86%
CC12CC[C@H](OS(=O)(=O)O)CC1=CCC1C2CCC2(C)C(C(=O)COS(=O)(=O)O)CCC12	80 µg/mL	VERO	TYPE 3	0%